The target of the series is T1, CaPif1 (Candida albicans) (UniProt Q59RQ0).
T1 sequence (looked up, limits assumed): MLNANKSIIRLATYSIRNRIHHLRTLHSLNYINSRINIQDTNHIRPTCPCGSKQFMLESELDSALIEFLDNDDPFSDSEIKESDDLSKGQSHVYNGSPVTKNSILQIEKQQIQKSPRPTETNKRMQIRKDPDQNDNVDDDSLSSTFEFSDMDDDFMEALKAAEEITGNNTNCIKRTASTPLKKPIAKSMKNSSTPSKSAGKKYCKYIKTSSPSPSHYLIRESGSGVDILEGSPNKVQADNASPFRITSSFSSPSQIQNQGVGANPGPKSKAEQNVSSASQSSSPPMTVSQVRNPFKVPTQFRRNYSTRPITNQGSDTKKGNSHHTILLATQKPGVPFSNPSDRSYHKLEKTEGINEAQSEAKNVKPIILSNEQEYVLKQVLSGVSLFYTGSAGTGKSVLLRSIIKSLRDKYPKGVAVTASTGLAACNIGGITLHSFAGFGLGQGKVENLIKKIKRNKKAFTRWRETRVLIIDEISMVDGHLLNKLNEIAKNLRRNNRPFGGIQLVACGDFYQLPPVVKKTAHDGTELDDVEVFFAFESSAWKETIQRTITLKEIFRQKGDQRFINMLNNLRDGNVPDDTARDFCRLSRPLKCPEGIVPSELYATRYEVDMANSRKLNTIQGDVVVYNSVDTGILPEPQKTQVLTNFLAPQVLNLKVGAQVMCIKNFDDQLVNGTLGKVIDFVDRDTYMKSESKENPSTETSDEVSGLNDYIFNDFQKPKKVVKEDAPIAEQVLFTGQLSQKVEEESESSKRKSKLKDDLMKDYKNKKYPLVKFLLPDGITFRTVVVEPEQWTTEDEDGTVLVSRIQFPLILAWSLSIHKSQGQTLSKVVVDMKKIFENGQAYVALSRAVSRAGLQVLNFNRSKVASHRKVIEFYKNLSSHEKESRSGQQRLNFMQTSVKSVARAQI
The series is described as follows: EMSA. The conditions noted are these: 1.5 mM Mg2+, no ATP, CaPif1 0-3000 nM; 25 mM Tris-HCl pH 7.5, 50 mM NaCl, 1.5 mM MgCl2, 1 mM DTT, 25 C; EMSA 10 nM DNA, 5 min, 6% native PAGE; recombinant protein; label: 3'-FAM on strand 1. (In general: In EMSA bound probe runs differently from free probe, usually more slowly.)

The exact form of at least one protein or probe is not confirmed. A weaker result is weaker than the reference pair of the same experiment. Where a protein sequence is shown, tags need not be part of it.

With “TATCGAAGAATGTTATGTCATTCCGGCAGATG (double strand) [DS32]”, the binding result is “binds more weakly”.
